Compound potency records, mixed from different reports. Data source: NIAID ChemDB in PubChem.

ICn is the concentration giving n% inhibition.

O=S(=O)(O)c1cc(O)c2c(O)cc(S(=O)(=O)O)cc2c1 ; method: cytopathic effect ; strain: TYPE 3 ; measure: inhibition ; dose: 50 µg/mL ; cell line: Human amnion AV3 cells ; kind: culture ; organism: Adenovirus ; result: 50%
Nc1nc(N)c2c(n1)Cc1c(Cl)cccc1-2 ; strain: TYPE 1 ; measure: IC50 ; kind: target ; target: Dihydrofolate reductase ; organism: Cryptosporidium parvum ; result: >10 µM
C=CCc1ccc(OC)c(OC)c1 ; method: turbidity ; strain: 3277 ; measure: MIC90 ; kind: culture ; organism: Candida parapsilosis ; result: 350 µg/mL
O=S(=O)(O)c1ccc2ccc(S(=O)(=O)O)cc2c1 ; method: cytopathic effect ; strain: TYPE 3 ; measure: inhibition ; dose: 50 µg/mL ; cell line: Human embryonic lung cells ; kind: culture ; organism: Adenovirus ; result: 0%
FC(F)(F)c1ccc(N2CCN(c3cncc(-c4ccc5ccccc5c4)n3)CC2)cc1 ; measure: inhibition ; dose: 1 µM ; kind: target ; target: UL97 kinase ; organism: Cytomegalovirus ; result: <50%
Cc1cn([C@@H]2O[C@H](CO)[C@@H](O)[C@@H]2O)c(=O)[nH]c1=O ; method: plaque count ; strain: OKA ; measure: inhibition ; dose: 1 µg/mL ; cell line: HELF ; kind: culture ; organism: Varicella zoster virus ; result: 100%
NCCS(=O)(=O)O ; method: cytopathic effect ; strain: TYPE 3 ; measure: inhibition ; dose: 10 µg/mL ; cell line: Human embryonic lung cells ; kind: culture ; organism: Adenovirus ; result: 10%
Fc1ccc(-c2cncc(N3CCN(c4ccccc4F)CC3)n2)cc1 ; measure: inhibition ; dose: 1 µM ; kind: target ; target: UL97 kinase ; organism: Cytomegalovirus ; result: <50%
CC(C)=CCN1Cc2cccc3[nH]c(=S)n(c23)C[C@@H]1C ; measure: IC50 ; kind: host protein ; target: DNA polymerase gamma ; organism: Human ; result: >175 µM
COc1cc(CN2CCc3nc(N)nc(N)c3C2)cc(OC)c1OC ; strain: TYPE 1 ; measure: IC50 ; kind: target ; target: Dihydrofolate reductase ; organism: Cryptosporidium parvum ; result: >10 µM
CCOc1ccccc1-c1cncc(N2CCN(c3ccc(C)cc3)CC2)n1 ; measure: IC50 ; kind: target ; target: UL97 kinase ; organism: Cytomegalovirus ; result: <100 µM
Nc1ccccc1S(=O)(=O)O ; method: cytopathic effect ; strain: TYPE 3 ; measure: inhibition ; dose: 50 µg/mL ; cell line: Human embryonic lung cells ; kind: culture ; organism: Adenovirus ; result: 40%
CCOC(=O)c1ccc(OCCC2CCN(c3ccc(C)nn3)CC2)cc1 ; method: neutral red ; strain: 5986 (ICAM-1 receptor group 18) ; measure: EC50 ; cell line: KB ; kind: culture ; organism: Rhinovirus ; result: 0.298 µM
CC(=O)N[C@H]1[C@H]([C@H](O)[C@H](O)CO)OC(C(=O)O)=C[C@@H]1N=C(N)N ; method: visual reading ; strain: H1N1 A/PR/8/34 ; measure: EC50 ; cell line: MDCK ; kind: culture ; organism: Influenza A virus ; result: 0.3 µM
Cc1ccccc1-c1cncc(N2CCN(c3cccc(Cl)c3)CC2)n1 ; measure: IC50 ; kind: target ; target: UL97 kinase ; organism: Cytomegalovirus ; result: <100 µM
CN(Cc1ccc2nc(N)nc(N)c2n1)c1ccc(C(=O)NC2CCCCC2)cc1 ; strain: TYPE 2 ; measure: IC50 ; kind: target ; target: Dihydrofolate reductase ; organism: Cryptosporidium parvum ; result: 4.7 µM
O=S(=O)(O)c1cccc2c(O)cccc12 ; method: cytopathic effect ; measure: inhibition ; dose: 10 µg/mL ; cell line: Human conjunctiva cells ; kind: culture ; organism: Herpes simplex virus ; result: 0%
COc1ccc(-c2cncc(N3CCN(c4cccc5[nH]ccc45)CC3)n2)cc1 ; measure: IC50 ; kind: target ; target: UL97 kinase ; organism: Cytomegalovirus ; result: <10 µM
CCCc1cccc(-c2nc3nc(N)nc(N)c3nc2-c2cccc(CCC)c2)c1 ; strain: TYPE 1 ; measure: IC50 ; kind: target ; target: Dihydrofolate reductase ; organism: Cryptosporidium parvum ; result: >10 µM
Nc1nc2c(ncn2COCCO)c(=O)[nH]1 ; method: plaque count ; strain: HIRAI ; measure: inhibition ; dose: 10 µg/mL ; cell line: HELF ; kind: culture ; organism: Varicella zoster virus ; result: 100%
CCCCc1ccc(Cc2nc3nc(N)nc(N)c3nc2Cc2cccc(CCCC)c2)cc1 ; strain: TYPE 1 ; measure: IC50 ; kind: target ; target: Dihydrofolate reductase ; organism: Cryptosporidium parvum ; result: >10 µM
CSc1ccc(-c2cncc(N3CCN(c4ccc(Cl)c(Cl)c4)CC3)n2)cc1 ; measure: IC50 ; kind: target ; target: UL97 kinase ; organism: Cytomegalovirus ; result: <100 µM
Nc1nc(=O)n([C@@H]2O[C@H](CO)[C@@H](O)[C@@H]2F)cc1I ; method: plaque count ; strain: Ohtomo ; measure: inhibition ; dose: 0.001 µg/mL ; cell line: HELF ; kind: culture ; organism: Varicella zoster virus ; result: 10%
Cc1cc(CCCOc2c(C)cc(-c3noc(C(F)(F)F)n3)cc2C)on1 ; method: cytopathic effect / visual reading ; strain: Isolate 7 ; measure: EC50 ; cell line: OHIO HELA-I ; kind: culture ; organism: Rhinovirus ; result: 0.22 µg/mL
O=C(c1ccco1)N1CCN(c2cncc(-c3cccc(CO)c3)n2)CC1 ; measure: inhibition ; dose: 10 µM ; kind: target ; target: UL97 kinase ; organism: Cytomegalovirus ; result: >15%
Fc1ccc(N2CCCCC2)c(NC(=S)c2ccncc2)c1 ; method: kinase activity ; measure: inhibition ; dose: 10 µM ; kind: host protein ; target: Txk ; result: 12%
Clc1ccc(-c2cncc(NCc3ccccc3)n2)cc1 ; measure: IC50 ; kind: target ; target: UL97 kinase ; organism: Cytomegalovirus ; result: <100 µM
O=c1[nH]c(=O)n([C@H]2C[C@H](O)[C@@H](CO)O2)cc1I ; method: plaque count ; strain: HIRAI ; measure: inhibition ; dose: 10 µg/mL ; cell line: HELF ; kind: culture ; organism: Varicella zoster virus ; result: 100%
O=C(Nc1cc(S(=O)(=O)O)cc2cc(S(=O)(=O)O)cc(O)c12)c1ccccc1 ; method: cytopathic effect ; strain: TYPE 3 ; measure: inhibition ; dose: 10 µg/mL ; cell line: Human embryonic lung cells ; kind: culture ; organism: Adenovirus ; result: 20%
Cc1cn([C@@H]2O[C@H](CO)[C@@H](O)[C@@H]2F)c(=O)nc1N ; method: plaque count ; strain: Asahikawa ; measure: inhibition ; dose: 0.001 µg/mL ; cell line: HELF ; kind: culture ; organism: Varicella zoster virus ; result: 14%
CC(=O)c1ccc(N2CCN(c3cncc(-c4cccc5ccccc45)n3)CC2)cc1 ; measure: inhibition ; dose: 10 µM ; kind: target ; target: UL97 kinase ; organism: Cytomegalovirus ; result: >15%

MIC50, MIC90 and the like: level of inhibition, or share of isolates inhibited. ECn: concentration that inhibits the pathogen or its effect by n%. Percent inhibition refers to the dose given; in toxicity tests it is the harm to the cells. Rows are shuffled and stem from different studies.